We go through 59 compounds from PubChem BioAssay AID1885 (Broad Institute, 2009).

The list shows a part of the results, in another mix than the full data. Activity calls are given as the source filed them.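 The calls were made as follows: active = mean inhibition across valid replicates above about 55% (limit read from the data); inconclusive = mean below that limit but half or more replicates reach it; inactive = mean below it, under half of replicates reach it.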

The experiment can be described thus: Trypanosoma cruzi replication blockers in host cells – luminescence, NIH3T3 host cells, primary screen (AID 1885).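 Also: signal also drops with host cell toxicity which is not excluded here; 0% = plate median of DMSO wells and 100% = zero luminescence signal; higher percent means less beta-gal luminescence so fewer parasites.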 The settings on record: T. cruzi beta-gal in NIH3T3, luminescence, 90 h; hits give high values; concentration not given here. Put shortly:
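Assay system: NIH/3T3 host cells with β-galactosidase reporter T. cruzi; input: 5,000 host fibroblasts per well; compound: single 50 nL compound addition per well in DMSO; timing: ≥90 h infection period, 3 h prior cell attachment; measured by: GalScreen β-gal luminescence, detergent lysis, 60 min; evaluation: percent inhibition of parasite-derived β-gal signal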
In general, inhibition refers to the drop in the measured response relative to a control, in per cent. Take `O=C(NCC1(N2CCCCC2)CCCCC1)c1cccc(C(F)(F)F)c1`: the inhibition is inactive: 15.6%.

On to `COc1ccc(NC2CCN(C(=O)OC(C)(C)C)CC2)cc1`, for which the inhibition is inactive: -9.19%. As for `CN1CCN(CCOC(=O)C(O)(c2ccccc2)c2ccccc2)CC1`, the figure is inactive: 2.44%; as for `O=C(NCC1(N2CCOCC2)CCCCC1)c1cc(=O)[nH]c2ccccc12`, inactive: -4.65%; as for `COc1cc(C(=O)NCC2(N3CCCCC3)CCCCC2)ccc1OC(F)F`, inactive: 14.6%. As for `O=C(NCC1(N2CCCCC2)CCCCC1)c1ccc(OC(F)F)cc1`, the figure is inactive: -6.38%. For `O=C(NCC1(N2CCCCC2)CCCCC1)c1cccc([N+](=O)[O-])c1` the value was inactive: 2%; for `CCN1CCC(Nc2ccc(Cl)cc2)CC1`, inactive: 3.3%.

With `N#CC1(Nc2ccccc2)CCN(CCc2ccccc2)CC1`, the inhibition is inactive: -7.56%. For `CN1CCC(Nc2cccc(F)c2)CC1` the value was active: 69.5%; for `CCCOc1ccc(C(=O)NCC2(N(C)C)CCCCC2)cc1OC`, inactive: -8.37%; for `COc1ccc(CN(CCCl)CCCl)cc1Cl`, inactive: -13.1%.

As for `CN(C)c1cccc(C(=O)NCC2(N3CCCCC3)CCCCC2)c1`, the inhibition was inactive: -3.85%. For `CC(C)c1ccc(NC2CCN(C(=O)OC(C)(C)C)CC2)cc1` the value was inactive: 10.6%; for `COc1cc(OC)c(C(=O)NCC2(N(C)C)CCCCC2)cc1OC`, inactive: -3.43%; for `O=C(NCC1(N2CCOCC2)CCCCC1)c1cc2ccccc2o1`, inactive: 2.08%.

With `O=C(NCC1(N2CCCCC2)CCCCC1)c1ccc(Cl)nc1`, the inhibition is inactive: -7.27%. Take `Cc1cc(C)cc(N(C(=O)c2ccccc2)C2CCN(C(=O)OC(C)(C)C)CC2)c1`: the inhibition was inactive: 49.3%. As for `CCOC(=O)N1CCC(Nc2ccc(OC)cc2)CC1`, the figure is inactive: 22.9%; as for `N#CC1(Nc2ccccc2)CCN(Cc2ccccc2)CC1`, inactive: 11.2%. In the case of `O=C(OC1CN2CCC1CC2)C1c2ccccc2Oc2ccccc21` (centres undefined), the inhibition is inactive: 14.4%.

For `O=C(NCC1(N2CCCCC2)CCCCC1)c1ccc(=O)[nH]c1`, the inhibition is inactive: -1.65%. For `O=C(NCC1(N2CCCCC2)CCCCC1)c1cccs1` the value was inactive: 1.56%; for `COc1ccc(C(=O)NCC2(N3CCCCC3)CCCCC2)cc1`, inactive: 12.2%; for `CC(C)(C)OC(=O)N1CCC(N(C(=O)c2ccccc2)c2ccc(F)cc2)CC1`, inactive: 12.3%.

For the compound `COc1ccc(C(=O)NCC2(N3CCCCC3)CCCCC2)c(OC)c1OC`, the inhibition was inactive: 8.66%. For the compound `CSc1ccccc1C(=O)NCC1(N2CCCCC2)CCCCC1`, the inhibition was inactive: 30.5%.

Turning to `CCOC(=O)N1CCC(Nc2cccc(C)c2)CC1`, the inhibition is inactive: -3.71%. For `COc1cc(C(=O)NCC2(N(C)C)CCCCC2)ccc1OC(F)F` the value was inactive: -12.4%; for `Cc1ccc(OCC(C)C)c(CN(CCCl)CCCl)c1`, inactive: 11.4%; for `CCOc1ccc(C)cc1CN(CCCl)CCCl`, inactive: -2.31%. As for `O=C(NCC1(N2CCCCC2)CCCCC1)c1ccc(F)cc1`, the figure is inactive: 1.98%; as for `CCOC(=O)N1CCC(Nc2ccc(F)cc2)CC1`, inactive: 5.91%.

Consider `COc1ccc(NC2CCN(CCc3ccccc3)CC2)c(OC)c1`, for which the inhibition was inactive: -1.05%.

Turning to `CCN1CCC(Nc2cccc(F)c2)CC1`, the inhibition is inactive: -1.53%. Take `CN(C)c1ccc(C(=O)NCC2(N3CCCCC3)CCCCC2)cc1`: the inhibition was inactive: 0.113%. For `COc1cc(OC)cc(C(=O)NCC2(N3CCCCC3)CCCCC2)c1` the value was inactive: 9.8%. As for `Cc1ccc(C(=O)NCC2(N3CCCCC3)CCCCC2)o1`, the figure is inactive: 0.859%.

For the compound `Fc1ccccc1NC1CCN(Cc2ccccc2)CC1`, the inhibition was inactive: -20.7%. With `CCC(CO)(C(=O)OC1CN2CCC1CC2)c1ccccc1` (centres undefined), the inhibition is inactive: 10.3%.

As to `COc1cccc(C(=O)N(c2cc(C)cc(C)c2)C2CCN(C(=O)OC(C)(C)C)CC2)c1`, the inhibition was inactive: 25.7%. For `COc1cc(OC)cc(C(=O)NCC2(N3CCOCC3)CCCCC2)c1` the value was inactive: 2.96%; for `CCCOc1ccc(C)cc1CN(CCCl)CCCl`, inactive: 11.7%.

Consider `CN1CCC(Nc2ccc(Cl)cc2)CC1`, for which the inhibition is inactive: 11.8%. For `CCOc1ncccc1C(=O)NCC1(N2CCOCC2)CCCCC1` the value was inactive: -3.07%. For `CN1CCC(Nc2ccc(F)c(Cl)c2)CC1` the value was inactive: 34.5%. For `CCCOc1ccc(C(=O)NCC2(N(C)C)CCCCC2)cc1`, the inhibition is inactive: -2.73%. For `CC(C)(C)OC(=O)N1CCC(Nc2ccccc2)CC1` the value was inactive: -15.6%. As for `O=C(O)C1(Nc2ccccc2)CCN(Cc2ccccc2)CC1`, the figure is inactive: 5.31%; as for `N/C(=N\O)c1c(N)no[n+]1[O-]`, inactive: -6.93%; as for `CCOC(=O)N1CCC(Nc2ccc(C)cc2)CC1`, inactive: -6.51%. For `CCc1cc(C(=O)NCC2(N3CCCCC3)CCCCC2)sc1C`, the inhibition was inactive: -3.03%. For `O=C(OC1CN2CCC1CC2)C1c2ccccc2C=Cc2ccccc21` (centres undefined) the value was inactive: 34.6%; for `COc1ccc(C(=O)NCC2(N3CCOCC3)CCCCC2)cc1OC`, inactive: -10.9%; for `c1ccc(CN2CCC(Nc3ccccc3)CC2)cc1`, inactive: 7.08%. Take `CCCN1CCC(Nc2cc(OC)cc(OC)c2)CC1`: the inhibition was inactive: 15.2%.

For the compound `CN(C)C1(CNC(=O)c2cccc(C#N)c2)CCCCC1`, the inhibition is inactive: -3.66%. As for `CC(C)(C)OC(=O)N1CCC(N(C(=O)c2ccccc2)c2ccc(Cl)cc2)CC1`, the figure is inactive: 17.9%; as for `N#Cc1ccc(C(=O)NCC2(N3CCCCC3)CCCCC2)cc1`, inactive: 4.68%.
